A mixed list of measured activities; the numbers were collected in NIAID ChemDB.

Shared fields: target-level tests; agent: HIV-1; protein: Reverse transcriptase; measure: fold resistance

Fold resistance: result on the changed form divided by that on wild type. Neighbouring rows are from separate reports. Blank or dashed fields: not listed here.

compound,mutations,read by,value
Cc1c(Cc2c(Cl)cccc2Cl)nc(SCc2ccc(C(C)C)cc2)[nH]c1=O,RT-181I,nucleotide incorporation / radiometric,~1
Nc1ccn([C@H]2CC[C@@H](COP(=O)(O)OP(=O)(O)OP(=O)(O)O)O2)c(=O)n1,RT-M184V,nucleotide incorporation / radiometric,6.67
Nc1nc2c(ncn2[C@H]2CC[C@@H](COP(=O)(O)OP(=O)(O)OP(=O)(O)O)O2)c(=O)[nH]1,RT-P225H,nucleotide incorporation / radiometric,0.66
Nc1ncnc2c1ncn2[C@H]1CC[C@@H](COP(=O)(O)OP(=O)(O)OP(=O)(O)O)O1,RT-M184V,nucleotide incorporation / radiometric,1.16
CCOc1cccc(C2(CC)Oc3ccccc3-n3cccc3C2=O)c1,RT-V106A,nucleotide incorporation / radiometric,6.3
CCc1cc(CCc2nc3c(Cl)ccc(Cl)c3o2)c(=S)[nH]c1C,RT-Y181C,nucleotide incorporation,2
O=C1c2ccncc2C(=O)N1CCNC(=S)Nc1ccc(Br)cn1,RT-Y188L,nucleotide incorporation,14.3
Cc1occc1C(=S)Nc1ccc(Cl)c(/C=N/OC(C)(C)C)c1,RT-K103N,-,>18.18
Cc1cn([C@H]2C=C[C@@H](COP(=O)(O)OP(=O)(O)OP(=O)(O)O)O2)c(=O)[nH]c1=O,RT-M184V,nucleotide incorporation / radiometric,0.68
COc1cc(CSc2nc(Cc3c(Cl)cccc3Cl)c(C)c(=O)[nH]2)cc(OC)c1,RT-K103N,nucleotide incorporation / radiometric,>1.56
c1ccc(C2SCc3nc4ccccc4n32)cc1,RT-V108I,-,~1.5
CC(C)=CCN1Cc2cccc3[nH]c(=S)n(c23)C[C@@H]1C,RT-Q161L,-,1
CC(C)=CCN1Cc2cc(Cl)cc3[nH]c(=O)n(c23)C[C@@H]1C,RT-P225H,nucleotide incorporation / radiometric,3
CCc1cc(CCc2nc3c(Cl)ccc(Cl)c3o2)c(=O)[nH]c1C,RT-K103N,nucleotide incorporation,18
CCC1(c2ccc(CNc3cccc(F)c3)cc2)Oc2ccccc2-n2cccc2C1=O,RT-Y188L,nucleotide incorporation / radiometric,>25
Cc1cn([C@H]2CC[C@@H](COP(=O)(O)OP(=O)(O)OP(=O)(O)O)O2)c(=O)[nH]c1=O,RT-I135A,nucleotide incorporation / radiometric,0.8
COc1cc(CSc2nc(Cc3c(F)cccc3F)c(C)c(=O)[nH]2)cc(OC)c1,RT-K103N,nucleotide incorporation / radiometric,~1
O=c1c2cccn2c2ccccc2n1CCNC(=S)Nc1ccc(Br)cn1,RT-L100I,nucleotide incorporation,1.81
CCC1(c2cccc(Cl)c2)Cc2ccccc2-n2cccc2C1=O,RT-V106A,nucleotide incorporation / radiometric,3
C/C=C/CSc1cc(NC(=S)c2ccsc2C)ccc1Cl,RT-L74V,-,1.04
CCC1(c2cccc(I)c2)Oc2ccccc2-n2cccc2C1=O,RT-Y181I,nucleotide incorporation / radiometric,>200
O=c1cnc2ccccc2n1CCNC(=S)Nc1ccc(Br)cn1,RT-L100I,nucleotide incorporation,10
Nc1ccn([C@H]2C[C@H](O)[C@@H](COP(=O)(O)OP(=O)(O)OP(=O)(O)O)O2)c(=O)n1,RT-Q151M,nucleotide incorporation / radiometric,1.1
CCc1c(Sc2ccccn2)n(COCc2ccccc2)c(=O)[nH]c1=O,RT-Y181C,-,>7
CC(C)=CCOc1cc(NC(=S)c2ccoc2C)ccc1Cl,RT-V106A,nucleotide incorporation / radiometric,19
Cc1cc(S(N)(=O)=O)ccc1NC(=O)COc1ccc(Cl)cc1C(=O)c1cc(Cl)cc(C#N)c1,RT-Y181C,fluorescence,1.27
CCC1(c2ccc(I)cc2)Oc2ccccc2-n2cccc2C1=O,RT-L100I,nucleotide incorporation / radiometric,1.5
Cc1cn([C@H]2C=C[C@@H](COP(=O)(O)OP(=O)(O)OP(=O)(O)O)O2)c(=O)[nH]c1=O,RT-K103N,RT activity,1.5
CCC1(c2ccc(CNc3ccccc3)cc2)Oc2ccccc2-n2cccc2C1=O,RT-Y181I,nucleotide incorporation / radiometric,>111
Cc1c(Cc2c(Cl)cccc2Cl)nc(SCc2ccc(Cl)cc2)[nH]c1=O,RT-181I,nucleotide incorporation / radiometric,>20
C=C(C)CCOCc1ccc(C2(CC)Oc3ccccc3-n3cccc3C2=O)cc1,RT-Y188L,nucleotide incorporation / radiometric,>3.57
COc1ccc(/C=C/NC(=O)Nc2ccc(Cl)cn2)cc1OC,RT-Y181I,nucleotide incorporation,2.86
CCOCn1c(Cc2ccccc2)c(C(C)C)c(=O)[nH]c1=O,RT-V106A P225H,nucleotide incorporation / radiometric,113
CC(C)=CCOc1cc(NC(=S)c2ccoc2C)ccc1Cl,RT-M184V,-,1.31

Again, the opening 2 rows:

compound	mutations	read by	value
Cc1c(Cc2c(Cl)cccc2Cl)nc(SCc2ccc(C(C)C)cc2)[nH]c1=O	RT-181I	nucleotide incorporation / radiometric	~1
Nc1ccn([C@H]2CC[C@@H](COP(=O)(O)OP(=O)(O)OP(=O)(O)O)O2)c(=O)n1	RT-M184V	nucleotide incorporation / radiometric	6.67